In US8835615B2, “2′-fluorine-4′-substituted-nucleoside analogues, preparation methods and uses thereof” (priority 2007, dated 2014):

Test system: HIV-1 IIIB
Assay: Anti-HIV-1 activity in MT-4 cell culture (P24 antigen)
Type: cell-based
Conditions: for SI HIV-infected: CC50 of HIV-infected cells / IC50; for SI HIV-uninfected: CC50 of uninfected cells / IC50

Compound: Cc1cn([C@H]2C[C@H](N=[N+]=[N-])[C@@H](CO)O2)c(=O)[nH]c1=O [AZT, Zidovudine, reference compound]
- SI HIV-infected: >3434
- SI HIV-uninfected: >3434

Compound: C#CC1(CO)OC(n2ccc(N)nc2=O)C(F)C1O (stereo not shown) [Compound 1]
- SI HIV-infected: 432
- SI HIV-uninfected: 405

Compound: CC1(CO)OC(n2ccc(O)nc2=O)C(F)C1O (stereo not shown) [Compound 9]
- SI HIV-infected: 298
- SI HIV-uninfected: 291

Compound: [N-]=[N+]=NC1(CO)OC(n2ccc(N)nc2=O)C(F)C1O (stereo not shown) [Compound 15]
- SI HIV-infected: >100000
- SI HIV-uninfected: >100000

Compound: C#CC1(CO)OC(n2cnc3c(F)ncnc32)C(F)C1O (stereo not shown) [Compound 19]
- SI HIV-infected: 487
- SI HIV-uninfected: 422

Compound: CC1(CO)OC(n2cnc3c(O)ncnc32)C(F)C1O (stereo not shown) [Compound 36]
- SI HIV-infected: 276
- SI HIV-uninfected: 296

Compound: N#CC1(CO)OC(n2cnc3c(N)ncnc32)C(F)C1O (stereo not shown) [Compound 39]
- SI HIV-infected: 26
- SI HIV-uninfected: 25

Compound: N#CC1(CO)OC(n2cc(F)c3c(O)ncnc32)C(F)C1O (stereo not shown) [Compound 46]
- SI HIV-infected: 370
- SI HIV-uninfected: 423

Compound: [N-]=[N+]=NC1(CO)OC(n2cc(F)c3c(N)ncnc32)C(F)C1O (stereo not shown) [Compound 50]
- SI HIV-infected: 12
- SI HIV-uninfected: 12

Compound: C#CC1(CO)OC(n2cc(F)c3c(N)ncnc32)C(F)C1O (stereo not shown) [Compound 52]
- SI HIV-infected: 311
- SI HIV-uninfected: 290

Compound: Cc1ccnc2c1NC(=O)c1cccnc1N2C1CC1 [NVP, Nevirapine, reference compound]
- SI HIV-infected: >3434
- SI HIV-uninfected: >3434
